Reference: US4065570A (priority 1975, dated 1977)
Read-outs that look alike come from different tables or passages of the source.

Test system: Cynomolgus monkeys
Conditions: Substance only (no virus)

In the case of “Acetylated 5-(3',4',-Dimethoxybenzal) hydantoin [Example 14]”, the “Presence of poliovirus in rectal, %” value (4th Day) is reported as 0%, the “Presence of poliovirus in rectal, No.” value (4th Day) is reported as 0/5 and the “Presence of poliovirus in rectal, %” value (8th Day) is reported as 0%. For the same substance, the “Presence of poliovirus in rectal, No.” value (8th Day) was 0/5, the “Presence of poliovirus in rectal, %” value (11th Day) was 0% and the “Presence of poliovirus in rectal, No.” value (11th Day) was 0/5. The “Presence of poliovirus in rectal, %” value (15th Day) was 0% and the “Presence of poliovirus in rectal, No.” value (15th Day) was 0/5.
